Pooled drug test results. Numbers come from NIAID ChemDB, via PubChem.

Shared fields: whole-cell or culture tests; species: Aspergillus fumigatus

Percent inhibition refers to the dose given; in toxicity tests it is the harm to the cells. A number after MIC or MFC names an inhibition level or a share of isolates. Lines come from different laboratories, so protocols vary. Zone: diameter of growth inhibition. Blank or dashed fields: not listed here. ECn: concentration that inhibits the pathogen or its effect by n%. a–b is a range or a potency band.

compound | method | tested at | endpoint | strain or isolate | changes | setting | value
COc1cc(O)c(C(=O)O)c(-c2cc(O)c(O)cc2C)c1 | resazurin |  | EC50 | CGMCC 3.5835 |  |  | 198 µM
C[C@H]1[C@H](O)[C@@H](C)/C=C/C=C/C=C/C=C/C=C/C=C/C=C/[C@H](O[C@@H]2O[C@H](C)[C@@H](O)[C@H](N)[C@@H]2O)C[C@@H]2O[C@](O)(C[C@@H](O)C[C@@H](O)CC[C@H](O)[C@@H](O)C[C@@H](O)CC(=O)O[C@H]1C)C[C@H](O)[C@H]2C(=O)O |  |  | MIC90 | 156 isolates |  |  | 1 µg/mL
CO[C@H]1O[C@@H](Oc2cc(O)c3c(=O)c(-c4ccc(O)cc4)coc3c2)[C@H](O)[C@@H](O)[C@@H]1O |  | 1000 µg/mL | inhibition |  |  |  | 95%
CN(C/C=C/C#CC(C)(C)C)Cc1cccc2ccccc12 | broth dilution |  | MIC100 | ATCC 26934 |  |  | 0.78 µg/mL
O=[N+]([O-])c1ccc(C[Se]c2nnnn2C2CCCCC2)c([N+](=O)[O-])c1 | broth dilution |  | EC50 | 231 |  | 48 h | >500 µM
COc1ccc(C(=O)/C=C/c2cc3cc(OC)c(OC)cc3nc2Cl)cc1OC |  |  | MIC | ATCC 26934 |  |  | >50 µg/mL
COc1cc(C(C)=O)ccc1O | agar |  | MIC100 |  |  |  | 916 µg/mL
O=[N+]([O-])c1cc(CSc2nnnn2Cc2ccccc2)cc([N+](=O)[O-])c1 | broth dilution |  | EC50 | 231 |  | 48 h | >500 µM
COc1ccc(/C=N/n2c(S[C@@H]3O[C@H](COC(C)=O)[C@@H](OC(C)=O)[C@H](OC(C)=O)[C@H]3OC(C)=O)nnc2-c2cccnc2)cc1 | agar diffusion / agar | 5 mg/mL | zone |  |  |  | 1–5 mm
C[C@@H]1[C@H](O)[C@@H](C)/C=C/C=C/C=C/C=C/C=C/C=C/C=C/[C@H](O[C@@H]2O[C@H](C)[C@@H](O)[C@H](N)[C@@H]2O)C[C@@H]2O[C@](O)(C[C@@H](O)C[C@@H](O)[C@H](O)CC[C@@H](O)C[C@@H](O)CC(=O)O[C@H]1C)C[C@H](O)[C@H]2C(=O)O |  |  | Geometric mean MIC | 27 isolates |  |  | 0.34 µg/mL
O=C(O)/C=C/c1ccc(O)c(O)c1 | agar |  | MIC100 |  |  |  | >1000 µg/mL
COc1ccc(C(=O)/C=C/c2cc3ccccc3nc2Cl)c(OC)c1 |  |  | MIC | ATCC 26934 |  |  | >50 µg/mL
C[C@H]1[C@H](O)[C@@H](C)/C=C/C=C/C=C/C=C/C=C/C=C/C=C/[C@H](O[C@@H]2O[C@H](C)[C@@H](O)[C@H](N)[C@@H]2O)C[C@@H]2O[C@](O)(C[C@@H](O)C[C@@H](O)CC[C@H](O)[C@@H](O)C[C@@H](O)CC(=O)O[C@H]1C)C[C@H](O)[C@H]2C(=O)O |  |  | MFC | NFI 0239 |  |  | 2 µg/mL
CC(=O)OC[C@H]1O[C@@H](n2[nH]c(-c3ccccc3)[n+](/N=C/c3ccc(Cl)cc3)c2=S)[C@H](OC(C)=O)[C@@H](OC(C)=O)[C@@H]1OC(C)=O | agar diffusion / agar | 2.5 mg/mL | zone |  |  |  | 1–5 mm
C[C@H]1[C@H](O)[C@@H](C)/C=C/C=C/C=C/C=C/C=C/C=C/C=C/[C@H](O[C@@H]2O[C@H](C)[C@@H](O)[C@H](N)[C@@H]2O)C[C@@H]2O[C@](O)(C[C@@H](O)C[C@@H](O)CC[C@H](O)[C@@H](O)C[C@@H](O)CC(=O)O[C@H]1C)C[C@H](O)[C@H]2C(=O)O | broth dilution | 0.54 µM | inhibition | 231 |  |  | 50%
Cc1cc(O)cc2oc3cc(O)cc(O)c3c(=O)c12 | resazurin |  | EC50 | CGMCC 3.5835 |  |  | 169 µM
CCCCCCCCCCCCC#CCCCCC(=O)O | broth dilution |  | EC50 |  |  |  | 0.34 µg/mL
CCc1ccc(O)cc1 | agar |  | MIC100 |  |  |  | 206 µg/mL
CN(C/C=C/C#CC(C)(C)C)Cc1cccc2ccccc12 | broth dilution |  | MIC80 |  |  | clinical isolate | 3.44 µM
C[C@H]1[C@H](O)[C@@H](C)/C=C/C=C/C=C/C=C/C=C/C=C/C=C/[C@H](O[C@@H]2O[C@H](C)[C@@H](O)[C@H](N)[C@@H]2O)C[C@@H]2O[C@](O)(C[C@@H](O)C[C@@H](O)CC[C@H](O)[C@@H](O)C[C@@H](O)CC(=O)O[C@H]1C)C[C@H](O)[C@H]2C(=O)O | agar | 1 µg/mL | inhibition | W73355 |  |  | 20%
O=[N+]([O-])c1cc(C[Se]c2nnnn2C2CCCCC2)cc([N+](=O)[O-])c1 | broth dilution |  | EC50 | 231 |  | 24 h | >500 µM
CCC(C)n1ncn(-c2ccc(N3CCN(c4ccc(OC[C@H]5CO[C@](Cn6cncn6)(c6ccc(Cl)cc6Cl)O5)cc4)CC3)cc2)c1=O |  |  | MIC90 |  |  |  | 1–8 µg/mL
CN(C/C=C/C#CC(C)(C)C)Cc1cccc2ccccc12 | broth dilution |  | MIC80 |  |  |  | >64 µg/mL
CC(=O)OC[C@H]1O[C@@H](n2[nH]c(-c3cccnc3)nc2=S)[C@H](OC(C)=O)[C@@H](OC(C)=O)[C@@H]1OC(C)=O | agar diffusion / agar | 5 mg/mL | zone |  |  |  | 1–5 mm
COc1cccc(C(=O)/C=C/c2cc3ccccc3cc2OC)c1 |  |  | MIC | ATCC 26934 |  |  | >50 µg/mL
CN(C)C1=NC(=O)/C(=C/c2ccc(Cl)cc2)S1 | broth dilution |  | MIC100 | ATCC 26934 |  |  | >250 µg/mL
O=C(/C=C/c1ccc(F)cc1)Nc1ccc(-n2cnn(CC(O)(Cn3cncn3)c3ccc(F)cc3F)c2=O)cc1 | broth dilution |  | MIC80 |  |  |  | >40 µg/mL
CNCC(=O)Nc1ccc(-c2ccc(OCC(O)(Cn3cncn3)c3ccc(F)cc3F)cc2)cn1 | broth dilution |  | MIC80 |  |  |  | >64 µg/mL
Cc1ccc(Sc2nc3ccccc3cc2C2C(C#N)=C(N)Oc3cc(C)oc(=O)c32)cc1 | broth dilution |  | MIC | MTCC 3008 |  |  | 200 µg/mL
N=C(N)c1ccc(OCCCCCOc2ccc(C(=N)N)cc2)cc1 |  |  | Geometric mean MIC | 20 isolates |  |  | >128 µg/mL
CC/C=C/C(CC)CCC[C@@]1(CC)C[C@H](CC)[C@H](CC(=O)O)OO1 |  | 5 µg/mL | inhibition |  |  |  | 50%
C[C@@H](n1ncc2cc(Br)ccc21)[C@](O)(Cn1cncn1)c1ccc(F)cc1F |  |  | MIC90 | ATCC MYA-1163 |  |  | 0.5 µg/mL
CN(C/C=C/C#CC(C)(C)C)Cc1cccc2ccccc12 | agar diffusion / agar | 2.5 mg/mL | zone |  |  |  | 10–15 mm
C[C@H]1[C@H](O)[C@@H](C)/C=C/C=C/C=C/C=C/C=C/C=C/C=C/[C@H](O[C@@H]2O[C@H](C)[C@@H](O)[C@H](N)[C@@H]2O)C[C@@H]2O[C@](O)(C[C@@H](O)C[C@@H](O)CC[C@H](O)[C@@H](O)C[C@@H](O)CC(=O)O[C@H]1C)C[C@H](O)[C@H]2C(=O)O |  |  | MIC90 |  |  |  | 0.5–8 µg/mL
CCC(C)n1ncn(-c2ccc(N3CCN(c4ccc(OC[C@H]5CO[C@](Cn6cncn6)(c6ccc(Cl)cc6Cl)O5)cc4)CC3)cc2)c1=O | broth dilution |  | MIC50 |  | TR46 azole-resistant |  | >16 µg/mL
Cc1cc2c(c(=O)o1)C(c1cc3ccccc3nc1Sc1ccc(Cl)cc1)C(C#N)=C(N)O2 | broth dilution |  | MIC | MTCC 3008 |  |  | >1000 µg/mL
CN(C/C=C/C#CC(C)(C)C)Cc1cccc2ccccc12 | broth dilution / agar |  | MIC100 |  |  |  | 200 µg/mL
COc1cccc(/C=C/C(=O)c2ccc(Br)cc2)c1 |  |  | MIC | ATCC 26934 |  |  | >50 µg/mL
COc1cc(Cc2cnc(N)nc2N)cc(OC)c1OC |  |  | Geometric mean MIC | 20 isolates |  |  | >16 µg/mL
COc1cnc2c3c(nccc13)C1SC=CC1C2=O |  |  | MIC80 |  |  |  | >64 µg/mL
C=CCSSSSCC=C |  |  | MIC80 | 28 isolates |  |  | 4 µg/mL
OC(Cn1cncn1)(Cn1cncn1)c1ccc(F)cc1F |  |  | MFC | NFI 0239 |  |  | >128 µg/mL
COc1cc2cc(/C=C/C(=O)c3ccc(Br)cc3)c(Cl)nc2cc1OC |  |  | MIC | ATCC 26934 |  |  | >50 µg/mL
CN(C)CCCC1(c2ccc(F)cc2)OCc2cc(C#N)ccc21 |  |  | MFC | 10 clinical isolates |  |  | 312–2500 µg/mL
Cc1cc(O)cc2c(=O)oc(C[C@@H](C)O)cc12 | resazurin |  | EC50 | CGMCC 3.5835 |  |  | >250 µM
COc1cc(C(=O)O)cc(OC)c1O | agar |  | MIC100 |  |  |  | >1000 µg/mL
COc1ccc(/C=N/[n+]2c(-c3ccccc3)[nH]n([C@@H]3O[C@H](COC(C)=O)[C@@H](OC(C)=O)[C@H](OC(C)=O)[C@H]3OC(C)=O)c2=S)cc1 | agar diffusion / agar | 1 mg/mL | zone |  |  |  | 0 mm
CC1(C)CCC[C@]2(C)[C@H]3C=C4C(=CC(=O)C(O)=C4Cl)O[C@@]3(C)CC[C@@H]12 |  | 20 µg/mL | inhibition | ATCC 90906 |  |  | 0%
O=C(/C=C/c1ccccc1)c1c(O)cc2occc2c1O | agar diffusion | 50 µg/disc | zone |  |  |  | 0 mm
O=C(O)Cc1ccc(-n2cnc3ccccc3c2=O)cc1 | agar diffusion / agar | 10 mg/mL | zone | RCMB 002003 |  |  | 12.1 mm
COc1ccc2nc(Sc3ccc(Cl)cc3)c(C3C(C#N)=C(N)Oc4cc(C)oc(=O)c43)cc2c1 | broth dilution |  | MIC | MTCC 3008 |  |  | >1000 µg/mL
CC(=O)OC[C@H]1O[C@@H](Sc2nnc(-c3cccnc3)n2/N=C/c2ccc(C)cc2)[C@H](OC(C)=O)[C@@H](OC(C)=O)[C@@H]1OC(C)=O | agar diffusion / agar | 5 mg/mL | zone |  |  |  | 1–5 mm
Oc1cc(O)cc(O)c1 | agar |  | MIC100 |  |  |  | >1000 µg/mL
Oc1cc(Cc2cc(O)c(O)c(Br)c2Br)c(Br)c(Br)c1O |  |  | EC50 | HIC 6094 |  |  | 12.5 µg/mL
Cc1ccc(Sc2nc3ccccc3cc2C2C(C#N)=C(N)Oc3c2c(=O)oc2ccccc32)cc1 | broth dilution |  | MIC | MTCC 3008 |  |  | 100 µg/mL
O=c1cc(-c2ccccc2)oc2c1c(O)cc1occc12 | agar diffusion | 50 µg/disc | zone |  |  |  | 9.5 mm
CC(=O)OC[C@H]1O[C@@H](n2nc(-c3cccnc3)n(N)c2=S)[C@H](OC(C)=O)[C@@H](OC(C)=O)[C@@H]1OC(C)=O | agar diffusion / agar | 2.5 mg/mL | zone |  |  |  | 1–5 mm
COc1ccc(-n2c(-c3ccc(Cl)cc3)nc3ccccc3c2=O)cc1OC | agar diffusion / agar | 10 mg/mL | zone | RCMB 002003 |  |  | 9.8 mm
COc1cc(O)cc(-c2cc(O)c(O)cc2C)c1 | resazurin |  | EC50 | CGMCC 3.5835 |  |  | >250 µM
COc1cc(/C=C2\SC(N(C)C)=NC2=O)cc(OC)c1OC | broth dilution |  | MIC100 | ATCC 26934 |  |  | >250 µg/mL
CN(C/C=C/C#CC(C)(C)C)Cc1cccc2ccccc12 |  |  | MIC90 | 60 isolates |  |  | >16 µg/mL
C=CCSSSCC=C |  |  | MIC80 | 28 isolates |  |  | 8 µg/mL
COc1ccc(-n2cnc3ccccc3c2=O)cc1OC | agar diffusion / agar | 10 mg/mL | zone | RCMB 002003 |  |  | 9.5 mm
Cc1noc(NS(=O)(=O)c2ccc(N)cc2)c1C |  |  | Geometric mean MIC | 20 isolates |  |  | >400 µg/mL
C=CCc1ccc(O)c(OC)c1 | broth dilution |  | MFC | MTCC 2550 |  |  | 640 µg/mL
CC(=O)c1ccccc1O | agar |  | MIC50 |  |  |  | 70 µg/mL
O=[N+]([O-])c1cc(CSc2nnnn2-c2ccc(Cl)c(Cl)c2)cc([N+](=O)[O-])c1 | broth dilution |  | EC50 | 231 |  | 48 h | >125 µM
CC[C@@H]([C@H](C)O)n1ncn(-c2ccc(N3CCN(c4ccc(OC[C@@H]5CO[C@@](Cn6cncn6)(c6ccc(F)cc6F)C5)cc4)CC3)cc2)c1=O |  |  | MIC50 |  |  |  | 0.125–0.5 µg/mL
COc1cc(-n2cnc3ccccc3c2=O)cc(OC)c1OC | agar diffusion / agar | 10 mg/mL | zone | RCMB 002003 |  |  | 11.3 mm
O=S(=O)(O)CCNCl |  |  | MIC90 | ATCC 26933 |  |  | 16 µM
COc1ccc(C(=O)/C=C/c2ccc(N(C)C)cc2)cc1OC |  |  | MIC | ATCC 26934 |  |  | >50 µg/mL
O=C(O)c1ccccc1O | agar |  | MIC50 |  |  |  | 80 µg/mL
COc1cc2occc2c(O)c1C(=O)/C=C/c1ccccc1 | agar diffusion | 50 µg/disc | zone |  |  |  | 9 mm
O=C(O)c1cc(O)c(O)c(O)c1 | agar |  | MIC50 |  |  |  | >1000 µg/mL
Nc1ccc(S(=O)(=O)c2ccc(N)cc2)cc1 |  |  | Geometric mean MIC | 20 isolates |  |  | >16 µg/mL

The last 6 rows once more:

compound	method	tested at	endpoint	strain or isolate	changes	setting	value
O=S(=O)(O)CCNCl			MIC90	ATCC 26933			16 µM
COc1ccc(C(=O)/C=C/c2ccc(N(C)C)cc2)cc1OC			MIC	ATCC 26934			>50 µg/mL
O=C(O)c1ccccc1O	agar		MIC50				80 µg/mL
COc1cc2occc2c(O)c1C(=O)/C=C/c1ccccc1	agar diffusion	50 µg/disc	zone				9 mm
O=C(O)c1cc(O)c(O)c(O)c1	agar		MIC50				>1000 µg/mL
Nc1ccc(S(=O)(=O)c2ccc(N)cc2)cc1			Geometric mean MIC	20 isolates			>16 µg/mL